In paper PMC11359509, “Anti-Skin Aging Potential, Antibacterial Activity, Inhibition of Single-Stranded DNA-Binding Protein, and Cytotoxic Effects of Acetone-Extracted Passiflora edulis (Tainung No. 1) Rind Extract on Oral”:
For at least one entry, the source does not settle the construct or the ends of the probe. Weaker means in comparison with the reference protein, sequence or condition of that experiment.

Amino acid sequences for entries named in this document (tags omitted). A change or cut given only in a name is not applied to a line headed by its entry.
UniProt A6TGW7: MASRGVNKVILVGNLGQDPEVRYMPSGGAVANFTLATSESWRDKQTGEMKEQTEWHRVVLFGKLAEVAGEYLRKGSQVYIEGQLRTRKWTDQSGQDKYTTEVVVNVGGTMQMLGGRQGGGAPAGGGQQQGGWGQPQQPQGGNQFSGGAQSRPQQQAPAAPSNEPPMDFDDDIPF

Molecular target: KpSSB (single-stranded DNA-binding protein) (Klebsiella pneumoniae) (UniProt A6TGW7)
Experiment: EMSA
Settings: 40 mM Tris-HCl pH 7.5, 50 mM NaCl, 37 °C, 60 min, 30 fmol/uL biotinylated ssDNA, 8% native PAGE in TBE, recombinant protein

Measured: binding result

TTTTTTTTTTTTTTTTTTTTTTTTTTTTTTTTTTT [dT35]
binds more weakly: 310 nM SSB + acetone rind extract of P. edulis 125-3000 ug/mL (extract IC50 313.2 +/- 21.0 ug/mL) | 310 nM SSB + ethanol rind extract (up to 3000 ug/mL), less potent than acetone extract | 310 nM SSB + methanol rind extract (up to 3000 ug/mL), less potent than acetone extract
